Experimental data taken from the supplement of paper PMC9931576.
Human monoclonal antibodies against the spike receptor-binding domain (heavy:light variable regions). IC50 against pseudoviruses bearing the spike of naturally observed variants; lower = stronger; >10 µg/ml means not reached at the top dose. No active / inactive call. The stated detection limit is 0.0005 µg/ml; values near or below 0.001 µg/ml lie at the floor of the assay.

B1: DH1130 (protein)
chain 1: EVQLVESGGDLVQPGGSLRLSCAASGFTFTTYAMTWVRQAPGKGLEWVSTISTTGGDTYYADSVKGRFTISRDNSRNTLNLQMNSLRAEDTAVYSCARHNELDHWGQGTLVIVSS
chain 2: EIVLTQSPDFQSVSPKEKVTITCRASQSIGSSLHWYQQKPDQSPKLLIKYASQSLSGVPSRFSGSGSGTDFTLTINSLEVEDGATYYCHQSSSFPRTFGQGTKVEIK
B2: BD56-571 (protein)
chain 1: EVQLVESGGGLVQPGGSLRLSCAASGFTFSSYDMHWVRQVTGKGLEWVAVIGTAADTYYPDSVKGRFTISRENAKNSLYLQMNSLRAGDTGIYYCARGNFDSSGFYGYFDFWGQGALVSVSS
chain 2: DIQMTQSPSSLSASVGDRVAITCRASQRISSYLNWYQQKPGKAPKLLIYAASSLQSGVPSRFSGSGSGTDFTLTISSLQPEDFATYYCQQSYTMPPYTFGQGTKLEIK
B3: BD56-574 (protein)
chain 1: QVQLQESGPALVKPSQTLSLTCTVSRGSIISGGFYWSWIRQHSGKGLEWIGHINYSGTTYYNPSLKSRLNILVDTSKNQFSLNLSSVTAADTAVYYCARVESGAYPPWFDPWGQGILVTVSS
chain 2: SYVLTQPPSVSAAPGKTASMTCGGNNIGSKSVHWYQQKPGQAPALVIYYDSARPSGIPERFSGSNSGNTATLTISRVEAGDEADYYCQVWDSSGDHPVFGGGTKLTVL
B4: BD56-579 (protein)
chain 1: QVRLQESGPKVVKPSGTLSLTCTVSGGSVTDYYWSWIRQPPGKGLEWVGYLYYSGSTNYNPSLKSRVTISLDTSKNQFSLRLSSVTAADTAVYYCARDEPIGYCYGDSCGSAYDLWGQGTKVTVSS
chain 2: DIQMTQSPSTLSASVGDRVTITCRASQSISSWLAWYQQKPGKAPKLLIYKASSLQSGVPSRFSGSGSGTEFTLTISSLQPDDFATYHCQQYSSYSTFGQGTKVEIK
B5: DH1063 (protein)
chain 1: QVQLVESGGGVVQPGRSLRLSCAASGFSFNNYGFHWVRQAPGKGLEWLTSIWHDGSREFYADSVKGRFTISRDNPQNTMYLQMNSLRAEDTALYFCARDVAHCTTVGCHGNWFDTWGQGTLVTVSS
chain 2: EIVLTQSPATLSLSPGDRATLSCRSSQTVDIYVGWYQQKPGQPPRLLIYDASNRAPGVPARFSGSGSGTDFTLTISSLEPEDFAVYFCQQRKSWPPLTFGGGTKVEMK
B6: BD56-586 (protein)
chain 1: VQLVESGGGLVQPGGSLRLSCAASGLPFSNDDMHWVRQVAGKGLEWVSGIGTTRDTYYADSVKGRFTISRDNAKNSLSLHMNSLRVEDTAMYYCARGNSYFDGSGYLFDLWGQGTLVTVSS
chain 2: DIQMTQSPSSLSAFVGDRVTIACRASQSIRRFLNWYQQKAGKAPKLLIYGASSLQNGVPTRFSGSGSGTDFTLTISSLQPEDFATYYCQQSYSMPPWTFGQGTKVEIK

What follows are binders tested against SARS-CoV-2 Omicron BA.1 spike pseudovirus (assay: pseudovirus neutralization IC50; higher = weaker neutralization).
Method: (§1)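 Single-round VSV luciferase pseudovirus mixed with antibody dilutions for 1 h and put on Huh-7 cells for about a day; IC50 from the dose curve.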

| Binder | pseudovirus neutralization IC50 [µg/mL] |
| --- | --- |
| B1 | > 10 |
| B2 | > 10 |
| B3 | 0.0729 |
| B4 | 0.0354 |
| B5 | > 10 |
| B6 | 6.07 |

What follows are binders tested against SARS-CoV-2 Omicron BA.2 spike pseudovirus in the same assay as above.
Method: as §1

| Binder | pseudovirus neutralization IC50 [µg/mL] |
| --- | --- |
| B1 | > 10 |
| B2 | 5.27 |
| B3 | 0.114 |
| B4 | 0.0254 |
| B5 | > 10 |
| B6 | 7.56 |

These binders were tested against SARS-CoV-2 Omicron BA.2.75 spike pseudovirus in the same assay as above.
Method: as §1

| Binder | pseudovirus neutralization IC50 [µg/mL] |
| --- | --- |
| B1 | > 10 |
| B2 | > 10 |
| B3 | 0.1 |
| B4 | 0.0326 |
| B5 | > 10 |
| B6 | 2.83 |

Each binder was assayed against SARS-CoV-2 Omicron BA.5 spike pseudovirus in the same assay as above.
Method: as §1

| Binder | pseudovirus neutralization IC50 [µg/mL] |
| --- | --- |
| B1 | > 10 |
| B2 | 6.85 |
| B3 | 0.218 |
| B4 | 0.0254 |
| B5 | > 10 |
| B6 | 3.86 |

The binders below were run against SARS-CoV-2 Omicron BQ.1.1 spike pseudovirus in the same assay as above.
Method: as §1

| Binder | pseudovirus neutralization IC50 [µg/mL] |
| --- | --- |
| B1 | > 10 |
| B2 | 7.79 |
| B3 | > 10 |
| B4 | > 10 |
| B5 | > 10 |
| B6 | 4.49 |

These binders were tested against SARS-CoV-2 Omicron XBB spike pseudovirus in the same assay as above.
Method: as §1

| Binder | pseudovirus neutralization IC50 [µg/mL] |
| --- | --- |
| B1 | > 10 |
| B2 | 9.1 |
| B3 | > 10 |
| B4 | > 10 |
| B5 | > 10 |
| B6 | 4.13 |

These binders were tested against SARS-CoV-2 early D614G spike pseudovirus in the same assay as above.
Method: as §1

| Binder | pseudovirus neutralization IC50 [µg/mL] |
| --- | --- |
| B1 | > 10 |
| B2 | 5.29 |
| B3 | 0.0535 |
| B4 | 0.182 |
| B5 | > 10 |
| B6 | 2.69 |
